The data set has as its system BVDV. In words: Antiviral assay: inhibition of BVDV-induced cytopathogenicity in MDBK cells. The following applies: selectivity index CC50/EC50 (MDBK / BVDV). The class given is cell-based. For orientation: Protection from cytopathic effect is a common read-out in antiviral testing.

Where only a bound is given, the exact number is not on record here.

These results are taken from publication PMC9231222 (Viruses, 2022).

In turn, `O=C(Nc1ccc(-c2nc3cc(F)c(F)cc3[nH]2)cc1)c1ccc([N+](=O)[O-])cc1` [Compound 5d, N-(4-(5,6-Difluoro-1H-benzo[d]imidazol-2-yl)phenyl)-4-nitrobenzamide] gave a S.I. above 27.8.

With `O=C(Nc1ccc(-c2nc3cc(Cl)ccc3[nH]2)cc1)c1ccc([N+](=O)[O-])cc1` [Compound 2d, N-(4-(5-Chloro-1H-benzo[d]imidazol-2-yl)phenyl)-4-nitrobenzamide], the S.I. is recorded as above 52.6.

As for `COc1cc(C(=O)Nc2ccc(-c3nc4cc(C)c(C)cc4[nH]3)cc2)cc(OC)c1OC` [Compound 7c, N-(4-(5,6-Dimethyl-1H-benzo[d]imidazol-2-yl)phenyl)-3,4,5-trimethoxybenzamide], the S.I. is above 333.3.

Consider `C[C@@]1(O)[C@H](O)[C@@H](CO)O[C@H]1n1cnc2c(=O)[nH]c(N)nc21` [NM 108, 2′-C-methylguanosine, reference compound], for which the S.I. is given as above 66.7. In addition, the S.I. (listed as NM108) is reported as 66.7.

In turn, `COc1cc(C(=O)Nc2ccc(-c3nc4cc(F)ccc4[nH]3)cc2)cc(OC)c1OC` [Compound 4c, N-(4-(5-Fluoro-1H-benzo[d]imidazol-2-yl)phenyl)-3,4,5-trimethoxybenzamide] displayed a S.I. above 2.4.

Consider `NC(=O)c1ncn([C@@H]2O[C@H](CO)[C@@H](O)[C@H]2O)n1` [Ribavirin, ribavirin, reference compound], for which the S.I. was above 5.6. The S.I. (listed as ribavirin) is given as 5.6.

Consider `COc1cc(C(=O)Nc2ccc(-c3nc4cc(Cl)c(Cl)cc4[nH]3)cc2)cc(OC)c1OC` [Compound 3c, N-(4-(5,6-Dichloro-1H-benzo[d]imidazol-2-yl)phenyl)-3,4,5-trimethoxybenzamide], for which the S.I. stood at 21.5.

`O=C(Nc1ccc(-c2nc3cc(Cl)c(Cl)cc3[nH]2)cc1)c1ccc([N+](=O)[O-])cc1` [Compound 3d, N-(4-(5,6-Dichloro-1H-benzo[d]imidazol-2-yl)phenyl)-4-nitrobenzamide] displayed a S.I. above 1.9.

As to `COc1cc(C(=O)Nc2ccc(-c3nc4cc(C)ccc4[nH]3)cc2)cc(OC)c1OC` [Compound 6c, N-(4-(5-Methyl-1H-benzo[d]imidazol-2-yl)phenyl)-3,4,5-trimethoxybenzamide], the S.I. was above 434.8.

`COc1cc(C(=O)Nc2ccc(-c3nc4ccccc4[nH]3)cc2)cc(OC)c1OC` [Compound 1c, N-(4-(1H-Benzo[d]imidazol-2-yl)phenyl)-3,4,5-trimethoxybenzamide]: the S.I. came out at 12.9.

The compound `COc1cc(C(=O)Nc2ccc(-c3nc4cc(Cl)ccc4[nH]3)cc2)cc(OC)c1OC` [Compound 2c, N-(4-(5-Chloro-1H-benzo[d]imidazol-2-yl)phenyl)-3,4,5-trimethoxybenzamide] had a S.I. of 500.

`O=C(Nc1ccc(-c2nc3cc(F)ccc3[nH]2)cc1)c1ccc([N+](=O)[O-])cc1` [Compound 4d, N-(4-(5-Fluoro-1H-benzo[d]imidazol-2-yl)phenyl)-4-nitrobenzamide] had a S.I. above 12.7.

As to `COc1cc(C(=O)Nc2ccc(-c3nc4cc(F)c(F)cc4[nH]3)cc2)cc(OC)c1OC` [Compound 5c, N-(4-(5,6-Difluoro-1H-benzo[d]imidazol-2-yl)phenyl)-3,4,5-trimethoxybenzamide], the S.I. is above 71.4.
